Pooled drug test results. Numbers come from NIAID ChemDB, via PubChem.

Shared fields: tests in culture; organism: HIV-2; strain or isolate: ROD; cell line: MT-4; method: MTT; endpoint: EC50

Rows are shuffled and stem from different studies. ECn is the concentration giving n% inhibition of infection, replication or growth.

compound | result
C[C@H](CCC=C(c1cc(Cl)c(O)c(C(=O)O)c1)c1cc(Cl)c(O)c(C(=O)O)c1)[C@H]1CCC2C3C(C[C@H](O)[C@@]21C)[C@@]1(C)CC[C@@H](O)C[C@H]1C[C@H]3O | 67.2 µM
O=C(COc1ccc2ccccc2c1)NCC(=O)NNC(=S)Nc1ccccc1 | >69.9 µg/mL
CCc1ccc(NC(=O)C2=C(C)NC(=O)C3C(N)=NN=C23)cc1 | 98 µg/mL
COC(=O)C(C)NC(=O)CCCN1C(=O)c2ccccc2C1=O | >101 µM
CC(C)CC(NS(=O)(=O)c1ccc(Cl)cc1)c1nnc(NS(=O)(=O)c2ccc(Br)cc2)s1 | >57.63 µM
O=C1/C(=C\c2ccc(F)cc2)N(CCc2cccs2)C(=S)N1CCc1cccs1 | 93.1 µg/mL
Cc1ccc(-n2c(CNC(=O)COc3ccc4ccccc4c3)n[nH]c2=S)cc1 | >25.2 µg/mL
N#Cc1ccc(-c2csc(N/N=C/c3cccnc3)n2)cc1 | >7.73 µM
COC(=O)C(NC(=O)CCCN1C(=O)c2ccccc2C1=O)C(C)C | >125 µM
Clc1ccc(-c2nnc3sc(-c4cccs4)nn23)cc1Cl | >92.7 µg/mL
Clc1ccc(-c2csc(N/N=C/c3ccncc3)n2)cc1 | >125 µM
CC(C)[C@@H](NC(=O)c1ccccc1)C(=O)N/N=C/c1c(F)cccc1F | >348 µM
Cc1cn([C@H]2C[C@H](N=[N+]=[N-])[C@@H](CO)O2)c(=O)[nH]c1=O | 0.0018 µM
Oc1ccc(-c2nnc3sc(-c4cccs4)nn23)c(Cl)c1Cl | >82.7 µg/mL
CCOC(=O)CNc1nc(NC(=O)Nc2ccccc2)nc(Oc2cc(=O)oc3ccccc23)n1 | >125 µg/mL
O=C1/C(=C\c2ccc(O)cc2)N(CCc2cccs2)C(=S)N1CCc1cccs1 | >13.25 µg/mL
CCOC(=O)CNc1nc(NC(=O)Nc2ccc(OCC)cc2)nc(Oc2cc(=O)oc3ccccc23)n1 | >125 µg/mL
COC(=O)C(CCSC)NC(=O)CCCN1C(=O)c2ccccc2C1=O | >18.85 µM
CC(C)CC(NS(=O)(=O)c1ccc(Cl)cc1)c1nnc(NS(=O)(=O)c2ccc(Cl)cc2)s1 | >59.93 µM
CCOC(=O)c1c([C@@H]2C[C@H]2c2ccccc2)n(C)c2ccc(O)cc12 | 5.4 µM
C/C(=N\Nc1nc(-c2ccc([N+](=O)[O-])cc2)cs1)c1ccc(-c2ccc(Br)cc2)cc1 | >66.15 µM
CCOC(=O)c1c(C)n([C@H]2C[C@@H]2c2ccccc2)c2ccc(OC(C)=O)c(O)c12 | 11.09 µM
CC(C)C(NC(=S)NC(=O)CCCN1C(=O)c2ccccc2C1=O)C(=O)O | >26.73 µM
Nc1ccn([C@@H]2CS[C@H](CO)O2)c(=O)n1 | 2.02 µM
N#Cc1ccc(-c2csc(N/N=C/c3ccccc3O)n2)cc1 | >104 µM
O=C(COc1ccc2ccccc2c1)NCc1n[nH]c(=S)n1-c1ccc(Cl)cc1 | >20.2 µg/mL
O=C(CCCN1C(=O)c2ccccc2C1=O)NC(=S)NC(CO)C(=O)O | >89.5 µM
Nn1cc(C(=O)O)c(=O)c2ccc(N3CCN(c4ccccn4)CC3)nc21 | >15.69 µM
CCOC(=O)CNc1nc(Nc2ccccc2OC)nc(Oc2cc(=O)oc3ccccc23)n1 | >72.3 µg/mL
CC1=C(C(=O)Nc2ccccc2)C2=NN=C(N)C2C(=O)N1 | 94.7 µg/mL
CCOC(=O)CNc1nc(Nc2ccc(F)cc2)nc(Oc2cc(=O)oc3ccccc23)n1 | >67.6 µg/mL
O=C(CCCN1C(=O)c2ccccc2C1=O)NC(=S)NC(Cc1ccc(O)cc1)C(=O)O | >37.82 µM
Nc1cc(O)ccc1-c1nn2c(-c3ccc(O)c(Cl)c3Cl)nnc2s1 | >19.61 µg/mL
CC1=C(C(=O)Nc2ccc(C)cc2)C2=NN=C(N)C2C(=O)N1 | 100 µg/mL
C/C(=N\Nc1nc(-c2ccc(Br)cc2)cs1)c1ccc2c(c1)OCO2 | >41.93 µM
COc1ccc(CCNc2nc(NC(=O)Nc3ccccc3C)nc(Oc3cc(=O)oc4ccccc34)n2)cc1OC | >16.9 µg/mL
CC(C)[C@H](NC(=O)c1ccccc1)C(=O)N/N=C/c1ccccc1F | >366 µM
Oc1ccc(-c2nnc3sc(-c4cnccn4)nn23)c(Cl)c1Cl | >2.11 µg/mL
Cn1cc(C(=O)O)c(=O)c2sc(N3CCN(c4nc5ccccc5s4)CC3)nc21 | >2.05 µM
Oc1ccc(-c2nn3c(-c4ccc(O)c(Cl)c4Cl)nnc3s2)c(Cl)c1Cl | >67.8 µg/mL
Cn1cc(C(=O)O)c(=O)c2ncc(N3CCN(c4nc5ccccc5s4)CC3)cc21 | >119 µM
CCOC(=O)CNc1nc(NC(=O)Nc2cccc(C)c2)nc(Oc2cc(=O)oc3ccccc23)n1 | >14.23 µg/mL
COC(=O)C(CO)NC(=O)CCCN1C(=O)c2ccccc2C1=O | >96.11 µM
C/C(=N\Nc1nc(-c2ccc([N+](=O)[O-])cc2)cs1)c1ccc(-n2ccnc2)cc1 | >38.9 µM
COc1ccc(CCNc2nc(NC(=O)Nc3cccc(Cl)c3)nc(Oc3cc(=O)oc4ccccc34)n2)cc1OC | >25.23 µg/mL
C[C@H](CCC=C(c1cc(Cl)c(O)c(C(=O)O)c1)c1cc(Cl)c(O)c(C(=O)O)c1)[C@H]1CC[C@H]2[C@@H]3CC[C@@H]4CCCC[C@]4(C)[C@H]3CC[C@]12C | >31.3 µM
C=Cn1cc(C(=O)O)c(=O)c2ccc(N3CCN(c4nc5ccccc5o4)CC3)nc21 | >1.03 µM
CC(C)[C@H](NC(=O)c1ccccc1)C(=O)N/N=C/c1c(F)cccc1F | >348 µM
O=C(COc1ccc2ccccc2c1)NCc1n[nH]c(=S)n1Cc1ccccc1 | >28.5 µg/mL
C=Cn1cc(C(=O)O)c(=O)c2ccc(N3CCN(c4nccs4)CC3)nc21 | 4.93 µM

For reference, 3 entries again:

compound | result
CC1=C(C(=O)Nc2ccccc2)C2=NN=C(N)C2C(=O)N1 | 94.7 µg/mL
CCOC(=O)c1c(C)n([C@H]2C[C@@H]2c2ccccc2)c2ccc(OC(C)=O)c(O)c12 | 11.09 µM
O=C(CCCN1C(=O)c2ccccc2C1=O)NC(=S)NC(CO)C(=O)O | >89.5 µM